This is a selection; strong and weak results do not stand in their true shares.
Legend:
Format in all cases: functional
[1] = target: Solute carrier family 2, facilitated glucose transporter member 1 (Homo sapiens) (UniProt P11166); assay: ST_JUDE_LEISH: Cytotoxicity at 2uM final concentration against transgenic Leishmania Mexicana promastigotes LmGLUT1 that are glucose transport deficient and complemented with the human glucose transporter GLUT1. Activity is measured by DNA content using SYBR green in vitro
[2] = target: Hexose transporter 1 (Plasmodium falciparum) (UniProt O97467); assay: ST_JUDE_LEISH: Cytotoxicity at 2uM final concentration against transgenic Leishmania Mexicana promastigotes LmPfHT that are glucose transport deficient and complemented with the Plasmodium falciparum hexose transporter. Activity is measured by DNA content using SYBR green in vitro
[3] = target: Glucose transporter (Leishmania mexicana) (UniProt O61059); assay: ST_JUDE_LEISH: Cytotoxicity at 2uM final concentration against transgenic Leishmania Mexicana promastigotes LmGT2 that are glucose transport deficient and complemented with the L. Mexicana glucose transporter 2. Activity is measured by DNA content using SYBR green in vitro

By UniProt entry, the sequences of proteins in these tests, tags left out. Residues count along the entry.
UniProt P11166, whole entry: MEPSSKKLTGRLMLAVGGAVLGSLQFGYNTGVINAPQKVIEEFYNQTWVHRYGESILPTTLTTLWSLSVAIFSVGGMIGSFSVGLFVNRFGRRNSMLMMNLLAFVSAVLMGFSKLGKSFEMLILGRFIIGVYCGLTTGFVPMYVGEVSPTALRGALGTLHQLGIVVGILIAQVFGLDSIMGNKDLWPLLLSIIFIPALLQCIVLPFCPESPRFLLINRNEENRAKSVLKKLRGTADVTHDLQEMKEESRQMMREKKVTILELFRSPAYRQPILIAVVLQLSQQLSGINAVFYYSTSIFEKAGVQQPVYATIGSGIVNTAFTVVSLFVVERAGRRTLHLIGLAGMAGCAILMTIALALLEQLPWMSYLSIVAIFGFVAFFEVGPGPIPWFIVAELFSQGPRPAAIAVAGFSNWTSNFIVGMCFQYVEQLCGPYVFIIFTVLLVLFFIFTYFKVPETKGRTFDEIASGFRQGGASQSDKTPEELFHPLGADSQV
UniProt O97467, 1-504: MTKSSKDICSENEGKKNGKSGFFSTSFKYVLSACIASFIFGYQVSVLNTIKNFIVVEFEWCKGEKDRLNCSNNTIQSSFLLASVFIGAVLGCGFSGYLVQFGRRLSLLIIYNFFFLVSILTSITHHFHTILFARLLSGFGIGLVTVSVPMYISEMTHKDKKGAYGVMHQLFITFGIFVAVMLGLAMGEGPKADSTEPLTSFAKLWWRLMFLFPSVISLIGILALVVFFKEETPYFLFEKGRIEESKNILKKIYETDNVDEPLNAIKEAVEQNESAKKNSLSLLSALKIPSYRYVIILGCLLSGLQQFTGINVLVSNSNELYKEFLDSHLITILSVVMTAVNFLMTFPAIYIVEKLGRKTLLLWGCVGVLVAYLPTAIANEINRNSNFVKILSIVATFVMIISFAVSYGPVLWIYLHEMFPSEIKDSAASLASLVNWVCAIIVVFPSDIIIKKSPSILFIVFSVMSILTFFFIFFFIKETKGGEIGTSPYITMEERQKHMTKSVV
UniProt O61059, 1-567: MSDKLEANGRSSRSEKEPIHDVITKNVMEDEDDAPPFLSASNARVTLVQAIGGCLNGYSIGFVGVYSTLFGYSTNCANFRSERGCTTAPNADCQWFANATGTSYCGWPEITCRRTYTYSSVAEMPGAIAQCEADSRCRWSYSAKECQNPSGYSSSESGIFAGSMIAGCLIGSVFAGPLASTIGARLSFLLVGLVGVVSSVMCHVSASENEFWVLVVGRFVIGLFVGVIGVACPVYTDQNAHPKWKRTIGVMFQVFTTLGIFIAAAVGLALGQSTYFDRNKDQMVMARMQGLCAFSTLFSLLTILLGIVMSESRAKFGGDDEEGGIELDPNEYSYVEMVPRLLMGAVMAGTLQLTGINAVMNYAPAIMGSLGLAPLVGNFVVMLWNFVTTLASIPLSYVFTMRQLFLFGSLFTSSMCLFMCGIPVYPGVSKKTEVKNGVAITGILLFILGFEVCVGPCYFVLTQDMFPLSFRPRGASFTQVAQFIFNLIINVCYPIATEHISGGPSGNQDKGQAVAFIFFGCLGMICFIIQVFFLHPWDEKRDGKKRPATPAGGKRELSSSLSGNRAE

SMILES	inhibition [1] [%]	inhibition [2] [%]	inhibition [3] [%]
CCN1CCCC1COC(=O)C(O)(c1ccc2c(c1)OCO2)c1ccc2c(c1)OCO2 (stereo unspecified)	8.96	6.38	6.25
CCN1CCCC(OC(=O)C(O)(c2ccc3c(c2)OCO3)c2ccc3c(c2)OCO3)C1 (stereo unspecified)	-0.66	0.99	1.94

Source: ChEMBL document CHEMBL3433997, “St. Jude Leishmania screening dataset” (2016)
